# In patent US20150290612A1 (priority 2012, published 2015):
# By UniProt entry, the sequences of proteins in these tests, tags left out. Where a name states a change or a piece, a line headed by the entry shows the natural chain unless it says otherwise.
# UniProt O42275: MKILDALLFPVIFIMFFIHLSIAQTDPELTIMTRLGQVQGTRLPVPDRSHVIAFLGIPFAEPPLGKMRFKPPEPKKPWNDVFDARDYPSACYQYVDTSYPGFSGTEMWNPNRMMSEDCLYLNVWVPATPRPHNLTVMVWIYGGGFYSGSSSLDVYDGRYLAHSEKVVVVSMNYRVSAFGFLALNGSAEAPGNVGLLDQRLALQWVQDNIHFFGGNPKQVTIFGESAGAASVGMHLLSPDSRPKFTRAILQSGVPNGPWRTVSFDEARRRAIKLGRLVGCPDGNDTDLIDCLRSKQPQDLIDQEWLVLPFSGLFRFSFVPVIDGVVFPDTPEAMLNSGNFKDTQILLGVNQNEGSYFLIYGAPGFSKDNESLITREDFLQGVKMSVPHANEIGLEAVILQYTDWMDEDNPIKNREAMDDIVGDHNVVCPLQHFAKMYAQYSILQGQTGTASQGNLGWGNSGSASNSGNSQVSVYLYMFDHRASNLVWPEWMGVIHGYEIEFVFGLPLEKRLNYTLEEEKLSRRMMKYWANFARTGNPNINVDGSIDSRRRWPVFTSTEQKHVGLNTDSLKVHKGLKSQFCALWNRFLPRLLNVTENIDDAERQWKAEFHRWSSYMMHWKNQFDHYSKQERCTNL
# Biological target: Acetylcholinesterase (AChE) (Electrophorus electricus, UniProt O42275)
# Conditions: co-contaminant present in sample
substance,measurement,value
Aflatoxin M1,Interference with analysis of organophosphates,no interference
